Data reported in PubChem BioAssay AID2221 (Broad Institute, 2009).
The entries are a selection whose mix differs from that of the whole data set. Active and inactive are the calls of the source. Rule as the data show it: active = inhibition above about 30%; inconclusive = no clear call, values can overlap the other calls; inactive = below that.

Sequences of proteins named here, by UniProt entry; tags and fusion partners are left off.
UniProt P9WHJ3, whole entry: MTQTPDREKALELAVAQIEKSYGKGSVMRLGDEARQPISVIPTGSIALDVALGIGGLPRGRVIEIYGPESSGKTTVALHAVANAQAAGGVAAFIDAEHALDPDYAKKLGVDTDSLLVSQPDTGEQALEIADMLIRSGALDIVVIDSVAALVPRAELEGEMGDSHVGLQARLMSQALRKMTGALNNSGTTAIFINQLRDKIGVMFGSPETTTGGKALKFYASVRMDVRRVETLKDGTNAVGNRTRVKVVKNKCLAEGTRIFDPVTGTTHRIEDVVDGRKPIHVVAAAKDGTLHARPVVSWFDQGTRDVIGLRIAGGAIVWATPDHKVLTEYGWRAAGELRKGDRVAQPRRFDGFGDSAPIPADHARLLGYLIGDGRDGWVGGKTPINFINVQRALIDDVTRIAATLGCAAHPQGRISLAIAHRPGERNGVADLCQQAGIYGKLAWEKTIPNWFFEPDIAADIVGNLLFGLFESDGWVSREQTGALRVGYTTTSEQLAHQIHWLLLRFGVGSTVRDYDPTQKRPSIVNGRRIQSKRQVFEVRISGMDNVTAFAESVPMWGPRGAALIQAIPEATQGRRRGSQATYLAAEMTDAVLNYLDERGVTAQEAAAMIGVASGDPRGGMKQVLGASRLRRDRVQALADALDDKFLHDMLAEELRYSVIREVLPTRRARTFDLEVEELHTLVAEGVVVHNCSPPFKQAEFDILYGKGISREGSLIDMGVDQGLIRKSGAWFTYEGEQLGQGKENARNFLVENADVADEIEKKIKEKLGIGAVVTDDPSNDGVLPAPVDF

Target: Protein RecA (Mycobacterium tuberculosis (strain ATCC 25618 / H37Rv)) (UniProt P9WHJ3)
Test: Mtb RecA intein splicing inhibitors, primary screen, biochemical, fluorescence, HTS (AID 2221);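 also: 0% = vehicle wells and 100% = reference inhibitor control wells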
Conditions: cell-free RecA intein splicing, hits give high values, concentration not given here

**Q.** `O=[N+]([O-])c1cc([N+](=O)[O-])c(NCC2CCS(=O)(=O)C2)c([N+](=O)[O-])c1` (centres undefined) was tested. Which inhibition did it give?
**A.** The inhibition was active: 78.4%.

**Q.** With `Cc1cc(-c2cccc3ccccc23)c(C)cn1.O=[N+]([O-])c1cc([N+](=O)[O-])c(O)c([N+](=O)[O-])c1` as the compound, how does the inhibition read?
**A.** The inhibition was inactive: 10.4%.

**Q.** With `O=[As](O)(c1ccccc1)c1ccc(O)cc1` as the compound, how does the inhibition read?
**A.** The inhibition was inactive: -0.485%.

**Q.** For `CCOP(C)(=S)SCC(=O)NC(C)(CC)C(=O)O` (centres undefined), which inhibition is on record?
**A.** Its inhibition is inactive: 0.277%.

**Q.** How did the inhibition turn out when `c1nnnn1CCn1cnnn1` was run?
**A.** Its inhibition is inactive: 2.58%.

**Q.** How did the inhibition turn out when `CP(=O)(Nc1ccc(SC(F)(F)F)cc1)Oc1ccc(F)cc1` (centres undefined) was run?
**A.** Its inhibition is inactive: 9.35%.

**Q.** `O=P(Nc1nccs1)(c1ccccc1)c1ccccc1` was tested. Which inhibition did it give?
**A.** Its inhibition is inactive: 1.35%.

**Q.** Which inhibition does the source give for `CC(C)C(=O)NC(Sc1ccccc1)C(Cl)(Cl)Cl` (centres undefined) here?
**A.** Its inhibition is inactive: 1.79%.

**Q.** For `Cc1ccccc1NP(C)(=O)Nc1ccccc1C`, which inhibition is on record?
**A.** Its inhibition is inactive: 1.37%.

**Q.** With `CP(=O)(Nc1ccc2c(c1)OCCO2)Oc1ccccc1` (centres undefined) as the compound, how does the inhibition read?
**A.** Its inhibition is inactive: -0.668%.

**Q.** With `O=C(OCCCN1CCCC1)C(O)(c1ccccc1)C1CCCCC1` (centres undefined) as the compound, how does the inhibition read?
**A.** The inhibition was inactive: 0.214%.

**Q.** Which inhibition does the source give for `COc1ccccc1OP(C)(=O)Nc1c(C)n(C)n(-c2ccccc2)c1=O` (centres undefined) here?
**A.** The inhibition was inactive: -3.24%.

**Q.** How did the inhibition turn out when `CC(=O)N1C2C3N(C(C)=O)C1C1N(C(C)=O)C(C(N1C(C)=O)N3C(C)=O)N2C(C)=O` was run?
**A.** Its inhibition is inactive: 0.00159%.

**Q.** `O=[N+]([O-])c1cc([N+](=O)[O-])c(CCNc2ccccc2)c([N+](=O)[O-])c1` was tested. Which inhibition did it give?
**A.** Its inhibition is inactive: 0.829%.

**Q.** Which inhibition does the source give for `CCc1ccc(OP(C)(=O)Nc2cccnc2)cc1` (centres undefined) here?
**A.** The inhibition was inactive: -0.65%.

**Q.** `CP(=O)(Oc1ccccc1)N1CCOC1=O` (centres undefined) was tested. Which inhibition did it give?
**A.** The inhibition was inactive: 5.24%.

**Q.** Which inhibition does the source give for `Cc1ccc(NP(=O)(Oc2ccccc2)Oc2ccccc2)nc1` here?
**A.** The inhibition was inactive: -0.437%.

**Q.** Which inhibition does the source give for `COc1ccc(OP(C)(=O)Nc2ccc(Br)cc2)cc1` (centres undefined) here?
**A.** The inhibition was inactive: -2.52%.

**Q.** `COc1ccc(C2=NCC(CBr)S2)cc1` (centres undefined) was tested. Which inhibition did it give?
**A.** The inhibition was inactive: 3.02%.

**Q.** `CCN(CC)CC(O)COC(=O)C(O)(c1ccccc1)C1CCCCC1` (centres undefined) was tested. Which inhibition did it give?
**A.** The inhibition was inactive: -2.29%.

**Q.** How did the inhibition turn out when `CN(C)C(=O)OCCc1n(C)cc[n+]1C` was run?
**A.** Its inhibition is inactive: 1.71%.

**Q.** How did the inhibition turn out when `CC(C)=N/N=C(\N)N[N+](=O)[O-]` was run?
**A.** The inhibition was inactive: -1.38%.

**Q.** With `CN(C)C(=O)c1c([N+](=O)[O-])cc([N+](=O)[O-])cc1[N+](=O)[O-]` as the compound, how does the inhibition read?
**A.** The inhibition was inactive: 9.6%.

**Q.** For `CC1CCN(C(=O)Oc2c(Cl)cc(Cl)c3cccnc23)CC1`, which inhibition is on record?
**A.** The inhibition was inactive: 8%.

**Q.** `Nc1ccc([As](=O)(O)c2ccc(N)cc2)cc1` was tested. Which inhibition did it give?
**A.** Its inhibition is inactive: -1.05%.

**Q.** With `CC(C)(C)c1ccc(OP(C)(=O)O)cc1` as the compound, how does the inhibition read?
**A.** Its inhibition is inactive: 1.33%.

**Q.** `COc1ccccc1OP(C)(=O)Nc1ccccc1Br` (centres undefined) was tested. Which inhibition did it give?
**A.** Its inhibition is inactive: -1.18%.

**Q.** For `CP(=O)(Nc1ccc(Cl)cc1)Oc1ccc(F)cc1` (centres undefined), which inhibition is on record?
**A.** Its inhibition is inactive: 0.00846%.

**Q.** Which inhibition does the source give for `CCN(/C(=N/P(=O)(N1CCOCC1)N1CCOCC1)N1CCOCC1)c1ccc(OC)cc1` here?
**A.** The inhibition was inactive: 0.382%.

**Q.** `O=C(Nc1cc([As](=O)(O)O)ccc1O)c1ccccc1` was tested. Which inhibition did it give?
**A.** The inhibition was inactive: 2.5%.

**Q.** For `CCOC(=O)c1ccc(NP(C)(=O)Oc2ccc(Cl)cc2)cc1` (centres undefined), which inhibition is on record?
**A.** Its inhibition is inactive: 2.77%.

**Q.** `CP(=O)(OC12CC3CC(CC(C3)C1)C2)OC12CC3CC(CC(C3)C1)C2` was tested. Which inhibition did it give?
**A.** Its inhibition is inactive: 8.51%.

**Q.** How did the inhibition turn out when `Nc1ccc2c(ccc3cccnc32)n1.O=[N+]([O-])c1cc([N+](=O)[O-])c(O)c([N+](=O)[O-])c1` was run?
**A.** Its inhibition is inactive: 6.02%.

**Q.** Which inhibition does the source give for `O=[N+]([O-])c1cccc(NC2=NCC(CBr)S2)c1` (centres undefined) here?
**A.** Its inhibition is inactive: 4.57%.

**Q.** Which inhibition does the source give for `O=C(O)CNc1ccc([As](=O)(O)O)cc1` here?
**A.** The inhibition was inactive: 0.375%.

**Q.** Which inhibition does the source give for `CC(C)(C)C(=O)NC(Sc1ccncn1)C(Cl)(Cl)Cl` (centres undefined) here?
**A.** The inhibition was inactive: 3.09%.

**Q.** For `O=[N+]([O-])c1ncn(CCn2ncnc2[N+](=O)[O-])n1`, which inhibition is on record?
**A.** Its inhibition is inactive: -1.67%.

**Q.** `CN(C(=O)Cc1ccc(Cl)c(Cl)c1)[C@H]1CCCC[C@@H]1N1CCCC1` was tested. Which inhibition did it give?
**A.** Its inhibition is inactive: 1.56%.

**Q.** With `Cc1ccc(NP(=O)(Oc2ccccc2F)Oc2ccccc2F)nc1` as the compound, how does the inhibition read?
**A.** Its inhibition is inactive: 1.02%.

**Q.** With `COc1ccccc1OP(C)(=O)Nc1ccc(C)c(C)c1` (centres undefined) as the compound, how does the inhibition read?
**A.** The inhibition was inactive: 0.98%.

**Q.** For `CCOP(=O)(Nc1ccccc1)OCC`, which inhibition is on record?
**A.** The inhibition was inactive: -1.6%.

**Q.** How did the inhibition turn out when `Cc1cc(SC(NC(=O)c2ccc(F)cc2)C(Cl)(Cl)Cl)ncn1` (centres undefined) was run?
**A.** Its inhibition is inactive: -1.14%.

**Q.** `COc1ccc(OP(C)(=O)Nc2ccccc2Br)cc1` (centres undefined) was tested. Which inhibition did it give?
**A.** The inhibition was inactive: -1.19%.

**Q.** For `CC(=O)Nc1ccc([As](=O)(O)O)cc1`, which inhibition is on record?
**A.** Its inhibition is inactive: 0.171%.

**Q.** Which inhibition does the source give for `Cc1cc(C)cc(OP(C)(=O)Nc2cccc(C(F)(F)F)c2)c1` (centres undefined) here?
**A.** The inhibition was inactive: 0.305%.

**Q.** How did the inhibition turn out when `O=P(Nc1nc2ccc(Cl)cc2s1)(c1ccccc1)c1ccccc1` was run?
**A.** Its inhibition is inactive: 12.8%.

**Q.** Which inhibition does the source give for `CCN(N=Nc1nonc1N)c1nonc1N` here?
**A.** Its inhibition is inactive: -3.06%.

**Q.** For `CP(=O)(OCCOc1ccccc1)OCCOc1ccccc1`, which inhibition is on record?
**A.** Its inhibition is inactive: -5.16%.

**Q.** How did the inhibition turn out when `CP(=O)(Nc1ccc(Cl)cc1Cl)Oc1ccccc1` (centres undefined) was run?
**A.** Its inhibition is inactive: 0.124%.

**Q.** Which inhibition does the source give for `Nc1cccc2ccc([As](=O)(O)O)cc12` here?
**A.** The inhibition was inactive: 14.1%.

**Q.** For `Cc1nc2ccc3ccccc3c2o1.O=[N+]([O-])c1cc([N+](=O)[O-])c(O)c([N+](=O)[O-])c1`, which inhibition is on record?
**A.** Its inhibition is active: 44.5%.

**Q.** For `Cc1ccc(OP(=O)(Nc2nccs2)Oc2ccc(C)cc2)cc1`, which inhibition is on record?
**A.** Its inhibition is inactive: 1.26%.

**Q.** `COc1ccc(OP(C)(=O)Nc2ccccn2)cc1` (centres undefined) was tested. Which inhibition did it give?
**A.** Its inhibition is inactive: -3.61%.

**Q.** With `COc1ccccc1OP(=O)(Nc1ccc(C)cn1)Oc1ccccc1OC` as the compound, how does the inhibition read?
**A.** The inhibition was inactive: 0.219%.

**Q.** With `CN(C)CCOC(=O)C(O)(c1ccccc1)C1CCCC1` (centres undefined) as the compound, how does the inhibition read?
**A.** Its inhibition is inactive: 0.476%.

**Q.** Which inhibition does the source give for `Clc1ccc(Cl)c(NC2=NCC(CBr)S2)c1` (centres undefined) here?
**A.** Its inhibition is inactive: 11.1%.

**Q.** With `CN1CCCC(OC(=O)C(c2ccccc2)c2ccccc2)C1` (centres undefined) as the compound, how does the inhibition read?
**A.** Its inhibition is inactive: -1.11%.

**Q.** How did the inhibition turn out when `NC(=O)c1cc([N+](=O)[O-])cc([N+](=O)[O-])c1N` was run?
**A.** Its inhibition is inactive: 0.175%.

**Q.** How did the inhibition turn out when `Cc1ccc(N/C(=N/P(=O)(N2CCOCC2)N2CCOCC2)N2CCOCC2)cc1` was run?
**A.** Its inhibition is inactive: -2.21%.

**Q.** Which inhibition does the source give for `COc1ccccc1OP(C)(=O)Nc1ccc(Br)cc1` (centres undefined) here?
**A.** The inhibition was inactive: 0.425%.

**Q.** With `COc1ccccc1OP(C)(=O)Nc1ccc(C)cc1C` (centres undefined) as the compound, how does the inhibition read?
**A.** The inhibition was inactive: 1.92%.

**Q.** With `CP(=O)(Nc1ccccn1)Oc1ccccc1` (centres undefined) as the compound, how does the inhibition read?
**A.** The inhibition was inactive: 1.47%.

**Q.** With `CCc1ccc(OP(C)(=O)O)cc1` as the compound, how does the inhibition read?
**A.** The inhibition was inactive: -3.89%.

**Q.** Which inhibition does the source give for `O=[N+]([O-])c1cc([N+](=O)[O-])c(Nc2ccccn2)c([N+](=O)[O-])c1` here?
**A.** The inhibition was active: 72.8%.

**Q.** `CC(C)CC(=O)NC(Sc1ccc(Cl)cc1)C(Cl)(Cl)Cl` (centres undefined) was tested. Which inhibition did it give?
**A.** The inhibition was inactive: 9.18%.

**Q.** With `Cc1c(NP(C)(=O)Oc2ccc(C(C)C)cc2)c(=O)n(-c2ccccc2)n1C` (centres undefined) as the compound, how does the inhibition read?
**A.** The inhibition was inactive: -2.16%.

**Q.** `Cc1c2non([O-])c-2c(C)[n+](=O)[n+]1[O-]` was tested. Which inhibition did it give?
**A.** The inhibition was inactive: 19.1%.

**Q.** Which inhibition does the source give for `O=C(NC(Sc1ccncn1)C(Cl)(Cl)Cl)c1ccccc1` (centres undefined) here?
**A.** The inhibition was inactive: -2.65%.

**Q.** With `Oc1ccccc1CNc1ccccn1` as the compound, how does the inhibition read?
**A.** The inhibition was inactive: 0.8%.
